# According to PubChem BioAssay AID720706 (Broad Institute, 2013):
# The list shows a part of the results, in another mix than the full data. Calls of active or inactive are those of the source.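 The calls were made as follows: active = significant combined selectivity score with lowered wild-type GFP, culture density cut under 30%, mutant RFP and density less affected; inactive = any of these conditions unmet.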
# Experiment: GFP drop in mixed WT/humanized-ribosome E. coli culture – GFP/RFP fluorescence, OD600, single point, bacterial rRNA inhibitor project, primary screen (AID 720706)
# Conditions: E. coli WT GFP vs humanized-ribosome RFP mutants, 24 h, hits give low values, DMSO median 0, no signal -100
row,Structure (SMILES),GFP signal change (wild-type ribosome)
1,CC(C)/C=N\N=C(\N)N[N+](=O)[O-],inactive: 3.74%
